The record followed here is PubChem BioAssay AID1533 (PCMD, 2009).

The chains behind the UniProt entries cited, without tags or fusion partners.
UniProt P9WH09, whole entry, looked up: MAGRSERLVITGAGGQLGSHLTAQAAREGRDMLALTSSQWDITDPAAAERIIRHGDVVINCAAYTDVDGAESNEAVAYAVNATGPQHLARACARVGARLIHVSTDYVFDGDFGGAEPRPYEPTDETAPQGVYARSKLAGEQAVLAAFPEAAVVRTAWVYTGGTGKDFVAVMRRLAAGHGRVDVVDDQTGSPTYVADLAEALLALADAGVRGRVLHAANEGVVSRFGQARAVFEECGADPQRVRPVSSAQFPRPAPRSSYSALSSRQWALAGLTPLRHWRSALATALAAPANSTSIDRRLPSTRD
UniProt P9WH11, whole entry, looked up: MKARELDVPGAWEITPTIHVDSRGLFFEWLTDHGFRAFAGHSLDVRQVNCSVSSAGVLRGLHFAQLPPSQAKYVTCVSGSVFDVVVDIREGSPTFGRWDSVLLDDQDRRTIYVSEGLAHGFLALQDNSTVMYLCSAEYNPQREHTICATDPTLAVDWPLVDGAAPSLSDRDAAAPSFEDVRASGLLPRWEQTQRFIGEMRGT

Only a part is listed here, and it is no random draw. Some salts and complexes are drawn in separate pieces, as the source files them; their charges need not balance. Calls of active or inactive are those of the source. Cut-off read from the data, not from the text of the source: active = inhibition mostly above about 34% (no sharp cut-off); inconclusive = no clear call, values can overlap the other calls; inactive = mostly below about 22%.

The assay has as its target dTDP-4-dehydrorhamnose reductase (Mycobacterium tuberculosis (strain ATCC 25618 / H37Rv)) + dTDP-4-dehydrorhamnose 3,5-epimerase (Mycobacterium tuberculosis (strain ATCC 25618 / H37Rv)) (UniProt P9WH09+P9WH11). Briefly: M. tuberculosis RmlC/RmlD coupled enzyme inhibitors, primary screen, biochemical, compound mixtures, 384-well, from 1536-well plates (AID 1533). To be noted: RmlC+RmlD coupled enzyme assay, percent inhibition; primary screen in compound mixtures; at 3.6 µM; hits give high values.
Usually inhibition stands for the relative decrease from the control value, in per cent. Consider `COC(=O)c1cc2c(s1)N=C(c1ccccc1)N(C)P2(=O)N1CCOCC1` (centres undefined), for which the inhibition is inactive: -1.92%.

As to `Cc1ccc(OP(=O)(Nc2ccccn2)Oc2ccc(C)cc2)cc1`, the inhibition was inactive: 8.28%.

As to `CCC(=O)N1C2C3N(C(=O)CC)C1C1N(C(=O)CC)C(C(N1C(=O)CC)N3C(=O)CC)N2C(=O)CC`, the inhibition is inactive: -4.24%.

Take `CCN(CC)CCCOC(=O)C(O)(c1ccccc1)C1CCCCC1` (centres undefined): the inhibition was inactive: -16.7%.

Consider `Cc1ccccc1OP(=O)(Nc1ccccn1)Oc1ccccc1C`, for which the inhibition was inactive: 1.51%.

For `O=c1c2cc([N+](=O)[O-])ccc2[nH]c2c([N+](=O)[O-])cc([N+](=O)[O-])cc12`, the inhibition is inactive: -14.5%.

As for `CCCCCOc1ccc(NP(C)(=O)Oc2ccc(Cl)cc2Cl)cc1` (centres undefined), the inhibition was inactive: 17.1%.

As to `CN(C)C(=O)Oc1noc2ccccc12`, the inhibition was inactive: -9.3%.

Turning to `O=P1(Nc2nc3ccc(Cl)cc3s2)COc2ccccc2O1` (centres undefined), the inhibition is inactive: 2.7%.

Consider `CC(C)(C)C(=O)NC(Sc1ccccc1)C(Cl)(Cl)Cl` (centres undefined), for which the inhibition was inactive: 6.82%.

`O=C(OC1CN2CCC1CC2)c1ccc([N+](=O)[O-])cc1` (centres undefined): the inhibition was inactive: -4.13%.

As to `O=C(OCCN1CCN(CCOCc2ccccc2)CC1)C(O)(c1ccccc1)c1ccccc1`, the inhibition is inactive: -3.54%.

Consider `COc1ccc2c(c1O)-c1c(O)c(OC)cc3c1[C@H](C2)[N+](C)(C)CC3.O=[N+]([O-])c1cc([N+](=O)[O-])c([O-])c([N+](=O)[O-])c1[O-]`, for which the inhibition is inactive: 3.6%.

For `CC(=O)Nc1ccc(Oc2c([N+](=O)[O-])cc([N+](=O)[O-])cc2[N+](=O)[O-])cc1`, the inhibition was inactive: -6.58%.

Take `NC(=O)c1cc([N+](=O)[O-])cc([N+](=O)[O-])c1N`: the inhibition was inactive: -4.42%.

As for `COc1ccccc1OP(C)(=O)Nc1ccc(Br)cc1` (centres undefined), the inhibition was inactive: -4.3%.

As to `Cc1ccc(N/C(=N/P(=O)(N2CCOCC2)N2CCOCC2)N2CCOCC2)cc1`, the inhibition is inactive: -7.14%.

For the compound `COc1ccccc1OP(=O)(Nc1ccc(C)cn1)Oc1ccccc1OC`, the inhibition was inactive: -3.2%.

Consider `Cc1ccc(OP(=O)(Nc2nccs2)Oc2ccc(C)cc2)cc1`, for which the inhibition is inactive: -1.96%.

With `Nc1cc(N)c2nonc2c1[N+](=O)[O-]`, the inhibition was inactive: -7.9%.

With `Cc1c(NP(C)(=O)Oc2ccc(C(C)C)cc2)c(=O)n(-c2ccccc2)n1C` (centres undefined), the inhibition was inactive: 3.12%.

Turning to `O=[N+]([O-])c1cc([N+](=O)[O-])c(Nc2ccccn2)c([N+](=O)[O-])c1`, the inhibition is inactive: 2.27%.

`Oc1ccccc1CNc1ccccn1`: the inhibition was inactive: 11.9%.

As to `Cc1c2non([O-])c-2c(C)[n+](=O)[n+]1[O-]`, the inhibition is inactive: 1.6%.

Turning to `CP(=O)(Nc1ccccn1)Oc1ccccc1` (centres undefined), the inhibition was inactive: -6.53%.

Consider `COc1ccccc1OP(C)(=O)Nc1ccc(C)cc1C` (centres undefined), for which the inhibition is inactive: -5.7%.

As for `O=C(O)c1ccccc1[As](=O)(O)O`, the inhibition was inactive: 13.8%.

With `O=P(Nc1nc2ccc(Cl)cc2s1)(c1ccccc1)c1ccccc1`, the inhibition was inactive: 2.63%.

With `Cc1cc(C)cc(OP(C)(=O)Nc2cccc(C(F)(F)F)c2)c1` (centres undefined), the inhibition is inactive: -5.92%.

For `Cc1cc(SC(NC(=O)c2ccc(F)cc2)C(Cl)(Cl)Cl)ncn1` (centres undefined), the inhibition was inactive: -7.96%.

Take `CCOP(=O)(Nc1ccccc1)OCC`: the inhibition was inactive: 2.47%.

As for `COc1ccccc1OP(C)(=O)Nc1ccc(C)c(C)c1` (centres undefined), the inhibition is inactive: 2.61%.

As for `Cc1ccc(NP(=O)(Oc2ccccc2F)Oc2ccccc2F)nc1`, the inhibition was inactive: -1.24%.

On to `COc1ccc(OP(C)(=O)Nc2ccccc2Br)cc1` (centres undefined), for which the inhibition is inactive: 6.73%.

Regarding `Cc1nc2ccc3ccccc3c2o1.O=[N+]([O-])c1cc([N+](=O)[O-])c(O)c([N+](=O)[O-])c1`, the inhibition is inactive: 5.78%.

Take `Nc1cccc2ccc([As](=O)(O)O)cc12`: the inhibition was inactive: -7.55%.

With `CP(=O)(Nc1ccc(Cl)cc1Cl)Oc1ccccc1` (centres undefined), the inhibition was inactive: -13.2%.

Turning to `CP(=O)(OCCOc1ccccc1)OCCOc1ccccc1`, the inhibition is inactive: -10.9%.

For the compound `O=C(Nc1cc([As](=O)(O)O)ccc1O)c1ccccc1`, the inhibition is inactive: 0.47%.

With `CP(=O)(OC12CC3CC(CC(C3)C1)C2)OC12CC3CC(CC(C3)C1)C2`, the inhibition is inactive: -1.94%.

`CC(C)(C)C(=O)NC(Sc1ccncn1)C(Cl)(Cl)Cl` (centres undefined): the inhibition was inactive: 3.79%.

Regarding `O=[N+]([O-])c1ncn(CCn2ncnc2[N+](=O)[O-])n1`, the inhibition was inactive: 15.6%.

For `O=[N+]([O-])c1cccc(NC2=NCC(CBr)S2)c1` (centres undefined), the inhibition was inactive: 6.41%.

As to `O=C(O)CNc1ccc([As](=O)(O)O)cc1`, the inhibition was inactive: -8.27%.

Regarding `CCN(CC)CC(O)COC(=O)C(O)(c1ccccc1)C1CCCCC1` (centres undefined), the inhibition was inactive: -3.58%.

For the compound `COc1ccc(OP(C)(=O)Nc2ccc(Br)cc2)cc1` (centres undefined), the inhibition is inactive: 6.88%.

Consider `COc1ccc(C2=NCC(CBr)S2)cc1` (centres undefined), for which the inhibition was inactive: -9.24%.

For `CC(=O)N1C2C3N(C(C)=O)C1C1N(C(C)=O)C(C(N1C(C)=O)N3C(C)=O)N2C(C)=O`, the inhibition was inactive: 49.6%.

Turning to `O=[N+]([O-])c1cccc2n[nH]nc12`, the inhibition was inactive: -6.12%.

Turning to `O=C(OCCCN1CCCC1)C(O)(c1ccccc1)C1CCCCC1` (centres undefined), the inhibition was inactive: 9.49%.

As to `Cc1ccc(NP(=O)(Oc2ccccc2)Oc2ccccc2)nc1`, the inhibition was inactive: -4.38%.

On to `CCc1ccc(OP(C)(=O)Nc2cccnc2)cc1` (centres undefined), for which the inhibition was inactive: -7.58%.

`O=[N+]([O-])c1cc([N+](=O)[O-])c(CCNc2ccccc2)c([N+](=O)[O-])c1`: the inhibition was inactive: 87.8%.

Regarding `COc1ccccc1OP(C)(=O)Nc1ccccc1Br` (centres undefined), the inhibition is inactive: -6.82%.

Turning to `C[N+]1=C2C=CC=CC=C2SC12C([N+](=O)[O-])=CC([N+](=O)[O-])=C[C-]2[N+](=O)[O-]` (centres undefined), the inhibition is inactive: -8.05%.

In the case of `CCN(/C(=N/P(=O)(N1CCOCC1)N1CCOCC1)N1CCOCC1)c1ccc(OC)cc1`, the inhibition is inactive: 6%.

Consider `CC(C)=N/N=C(\N)N[N+](=O)[O-]`, for which the inhibition was inactive: -14.1%.

For the compound `CN(C)C(=O)c1c([N+](=O)[O-])cc([N+](=O)[O-])cc1[N+](=O)[O-]`, the inhibition is inactive: 16.1%.

For `CC1CCN(C(=O)Oc2c(Cl)cc(Cl)c3cccnc23)CC1`, the inhibition is inactive: 16.3%.
